The subject of this series is 20S proteasomes. Description: Proteasome digestion assay of 26-mer synthetic peptide substrates, fragments analysed by electrospray mass spectrometry. The settings on record: MuLV natural and analogue 26-mer substrates. The series is classed as biochemical, mouse.

The record followed here is patent US20030186355A1, “Methods for selecting and producing t cell peptide epitopes and vaccines incorporating said selected epitopes” (priority 2000, published 2003).

As to “TGRASWKPSSSWDYITVSNNLTSDQA [26-mer substrate 5B, AKV MuLV, reference compound]”, the “C-terminal cleavage site by the 20S proteasome” value is recorded as “preferential C-terminal cleavage after valine”.
